# PubChem BioAssay AID624099 | ICCB-Longwood | 2012
# Aim: 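Human genes that papillomavirus E2 requires to repress the HPV18 LCR promoter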 (primary screen)
# Cells: human C33A cervical carcinoma cells (HPV-negative) stably expressing BPV1 E2 and an HPV18 LCR luciferase reporter
# Reagents: siRNA pool against human genes, 40 nM
# Timing: 72 h
# Read-out: 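Per-well luciferase luminescence, z-scored on each plate against the plate mean and SD with control wells left out, then averaged across three replicate plates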
# Direction: mean z-score and z-score: higher = stronger reporter signal, weaker E2 silencing
# Call rule: 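Mean z ≥ 2 together with z ≥ 2 in two or more of the three replicates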
# The deposit covers about 21,000 reagents; shown is an unselected part. Of all reagents, 497 (2.4%) are marked active. 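Higher z means weaker E2 silencing; only reporter increases were scored, and knock-downs that hurt cell survival may mask genuine repressor factors.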 Entries without a mark were called inactive.
Gene,mean z-score,"z-score, replicate A","z-score, replicate B","z-score, replicate C"
LINC01148,-1.82,-1.81,-2.25,-1.4
IL19,-0.4,-0.64,-0.32,-0.22
MAP3K7CL,3.57 (active),3.4,3.68,3.64
ZSWIM9,-0.43,-0.36,-0.38,-0.56
KLHL1,-1.74,-1.63,-1.45,-2.13
OGA,-0.66,-1.08,-0.46,-0.45
SPC25,-0.94,-0.98,-1.05,-0.79
C1orf146,0.09,0.12,0.16,0
CACUL1,0.46,-0.28,0.6,1.06
TSLIG3B,0.26,0.11,0.27,0.4
EIF3K,-0.57,-0.83,-0.54,-0.33
SLC26A3,-1.75,-1.61,-1.78,-1.86
TRIQK,-1.04,-1.07,-1.14,-0.92
KITLG,0.12,0.03,0.19,0.15
DAP3,0.85,0.94,0.72,0.88
RACK1,1.42,1.33,1.58,1.36
URI1,-0.6,-0.72,-0.66,-0.41
OR5V1,-0.89,-0.8,-1.31,-0.56
MAFB,1.32,1.29,1.59,1.09
NHERF1,-1.31,-1.33,-1.59,-1.02
C16orf96,0.12,0.35,-0.27,0.3
FOXRED2,0.51,0.35,0.32,0.85
MEAK7,-0.92,-1.05,-1.03,-0.68
MS4A8,-0.13,-0.2,0.05,-0.25
GHDC,-1.18,-1.51,-1.14,-0.9
CPSF4,-0.24,-0.14,-0.21,-0.38
BRDT,0.34,0.28,0.35,0.4

Laid out differently: 9 of the entries above
{"Gene": "RACK1", "mean z-score": 1.42, "z-score, replicate A": 1.33, "z-score, replicate B": 1.58, "z-score, replicate C": 1.36}
{"Gene": "URI1", "mean z-score": -0.6, "z-score, replicate A": -0.72, "z-score, replicate B": -0.66, "z-score, replicate C": -0.41}
{"Gene": "OR5V1", "mean z-score": -0.89, "z-score, replicate A": -0.8, "z-score, replicate B": -1.31, "z-score, replicate C": -0.56}
{"Gene": "MAFB", "mean z-score": 1.32, "z-score, replicate A": 1.29, "z-score, replicate B": 1.59, "z-score, replicate C": 1.09}
{"Gene": "NHERF1", "mean z-score": -1.31, "z-score, replicate A": -1.33, "z-score, replicate B": -1.59, "z-score, replicate C": -1.02}
{"Gene": "C16orf96", "mean z-score": 0.12, "z-score, replicate A": 0.35, "z-score, replicate B": -0.27, "z-score, replicate C": 0.3}
{"Gene": "FOXRED2", "mean z-score": 0.51, "z-score, replicate A": 0.35, "z-score, replicate B": 0.32, "z-score, replicate C": 0.85}
{"Gene": "MEAK7", "mean z-score": -0.92, "z-score, replicate A": -1.05, "z-score, replicate B": -1.03, "z-score, replicate C": -0.68}
{"Gene": "MS4A8", "mean z-score": -0.13, "z-score, replicate A": -0.2, "z-score, replicate B": 0.05, "z-score, replicate C": -0.25}

The list goes on.
Gene,mean z-score,"z-score, replicate A","z-score, replicate B","z-score, replicate C"
GSK3A,-2.87,-2.74,-2.73,-3.14
GPR176,0.39,0,0.09,1.07
LOC286441 (retired record),0.02,0.2,0.12,-0.25
SC5D,0.54,0.32,0.6,0.71
CLTB,-0.73,-0.7,-0.77,-0.72
TRANK1,-0.63,-0.79,-0.5,-0.61
KLHL41,0.37,0.34,0.53,0.25
IFNWP2,0.84,0.68,0.83,1.02
SOX6,0.57,0.74,0.46,0.52
TEX41,0.52,0.2,1,0.34
GPR171,-0.86,-0.85,-0.88,-0.84
SHOX2,-1.28,-1.47,-1.24,-1.12
CCDC171,0.59,0.25,1.17,0.36
CLXN,0.25,0.5,0.25,0
PRPF31,-0.52,-0.35,-0.4,-0.81
CPHL1P,0.51,0.43,0.45,0.64
UBN1,-0.79,-0.63,-1.16,-0.56
LRRC31,1.07,1.23,1.67,0.31
CARD11,-1.45,-1.49,-1.74,-1.11
MYH1,-0.89,-0.74,-1.34,-0.6
TDRD6,-0.34,-0.4,-0.01,-0.62
HYKK,0.53,0.93,-0.08,0.74
MKKS,0.14,0.23,-0.11,0.3
PLPPR5,-0.57,-0.26,-0.9,-0.55
SF3A3,-0.76,-0.59,-0.63,-1.06
ERVFC1-1,-0.07,-0.25,0.03,0
MGARP,0.69,0.75,0.96,0.35
FOSB,-0.78,-0.31,-1.14,-0.9
STK11,-1.01,-0.88,-1.04,-1.11
PAN2,0.02,0.11,0.18,-0.24
ITGA1,-0.69,-0.89,-0.44,-0.74
NUDT6,0.59,0.69,0.44,0.63
BCL2L14,0.51,0.54,0.42,0.57
BUB1B,0.43,0.78,0.29,0.22
ZNF165,-0.26,-0.4,-0.1,-0.28
GFRA2,-1.32,-1.53,-1.21,-1.21
DOK4,1.15,0.97,1.37,1.11
ATOSB,0.74,0.98,0.42,0.81
MON1A,-0.66,-0.84,-0.61,-0.55
CAPRIN2,-0.48,-0.38,-0.27,-0.79
LOC389958 (retired record),2.91 (active),2.89,3.31,2.52
LOC84843 (retired record),-0.36,-0.11,-0.66,-0.31
BPIFA4P,-1.07,-1.05,-1.19,-0.95
SLC25A44,0.47,0.51,0.41,0.51
LOC401819 (retired record),-0.11,-0.07,-0.29,0.03
FTH1P19,0.29,0.51,0.16,0.19
